Common to all, as to test: SPR
The target of assay [1] is N1 fragment of murine PrP (residues 23–111), Myc-tagged (murine) (UniProt P04925).
The target is the same in assay [2]. The source holds these as a separate data set.
Assay [3] shares this target. The source holds these as a separate data set.
Assay [4] concerns the target recombinant murine PrP (residues 23–230), Myc-tagged (murine) (UniProt P04925).

Like-named read-outs stand apart in the source and are kept apart here.

The Kd is the constant that tells how readily two partners part at equilibrium. The term koff denotes the first-order rate constant of dissociation. What is called kon is a measure of how fast the partners come together. On to “synthetic Aβ_(1–42) oligomers (Aβ-derived diffusible ligands) (from UniProt P05067) (peptide)”, for which the Kd worked out at 19.1 nM in assay [1], 40.9 nM in assay [2], 17.3 nM in assay [3] and 30.1 nM in assay [4]. Moreover, the koff was 7.68e-05 s⁻¹ in assay [1], 6.54e-05 s⁻¹ in assay [2], 7.44e-05 s⁻¹ in assay [3] and 5.21e-05 s⁻¹ in assay [4]. Further, the figures for the kon in assay [1], in assay [3] and in assay [4] were 4030 M⁻¹ s⁻¹, 4290 M⁻¹ s⁻¹ and 1690 M⁻¹ s⁻¹, respectively.
